Measurements published in US4647687A, “Halogenated sulphides, process for their preparation and their use in microbicidal agents” (Bayer Aktiengesellschaft, priority 1983, dated 1987).
Converted amounts (≈) assume the structure as drawn.

Experiments:
Eschercihia coli = experiment: Action against bacteria (MIC in broth agar); type: cell-based; conditions: Escherichia coli; 28° C., 60 to 70% relative humidity, 2 weeks
Staphylococcus aureus = experiment: Action against bacteria (MIC in broth agar); type: cell-based; conditions: 28° C., 60 to 70% relative humidity, 2 weeks
Alternaria tenuis = experiment: MIC against fungi, beerwort/peptone agar; conditions: 28° C., 60 to 70% relative humidity, 2 weeks
Aspergillus niger = experiment: MIC against fungi, beerwort/peptone agar; conditions: 28° C., 60 to 70% relative humidity, 2 weeks
Penicillium glaucum = experiment: MIC against fungi, beerwort/peptone agar; conditions: 28° C., 60 to 70% relative humidity, 2 weeks
Sclerophoma pityophila = experiment: MIC against fungi, beerwort/peptone agar; conditions: 28° C., 60 to 70% relative humidity, 2 weeks

Compound	MIC (Eschercihia coli) [µg/mL]	MIC (Staphylococcus aureus) [µg/mL]	MIC (Alternaria tenuis) [µg/mL]	MIC (Aspergillus niger) [µg/mL]	MIC (Penicillium glaucum) [µg/mL]	MIC (Sclerophoma pityophila) [µg/mL]
N#CC=C(Cl)SCC(Cl)(Cl)C#N	200 (≈ 828 µM)	50 (≈ 207 µM)	10 (≈ 41.4 µM)	20 (≈ 82.8 µM)	20 (≈ 82.8 µM)	5 (≈ 20.7 µM)
N#CC(Cl)=C(Cl)SCC(Cl)(Cl)C#N	50 (≈ 181 µM)	50 (≈ 181 µM)	5 (≈ 18.1 µM)	10 (≈ 36.2 µM)	10 (≈ 36.2 µM)	2 (≈ 7.25 µM)
